Library screen at single concentrations

Source: ChEMBL document CHEMBL3988442, “University of Dundee, Small-Polar-MMV Screening Library” (2021).

Mtb glucose medium: 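Whole-cell growth test on Mycobacterium tuberculosis, read after 3 days in glucose-containing 7H9 medium; the read-out is not stated. Tested at 50 µM. The record gives no direction; compounds that gave an IC50 in retests scored well above the rest, so higher reads as more growth inhibition. Of about 69,000 compounds tested this way, about 760 (1.1%) reached 50% or more in at least one test.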
Mtb cholesterol medium: 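Growth of Mycobacterium tuberculosis over 4 days (cholesterol / DPPC medium with tyloxapol); the read-out is not stated. Tested at 50 µM. Direction is inferred from retests: higher values go with more growth inhibition. Size under these conditions: about 69,000 compounds, about 370 of them at 50% or above in at least one test.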

Values are the deposited “Percent Effect”, in %. The record does not define 0% and 100%; most values in the screen are far below 50% and negative numbers occur (in some assays of this library far below -100). This is part of a subset picked to be rich in strong results. Two or more numbers in one place are separate tests of the same structure; such repeats can differ widely. A dash means the value is not listed here; it may have been measured.

compound,Mtb glucose medium,Mtb cholesterol medium
CCOc1nnc(CN2CCN(CCOC)CC2)s1,-,-8.32 & -17.38
O=C(NCCNc1ccc(C(F)(F)F)cn1)c1ccc(Br)cc1F,-,36.14
O=C1NCCCCC1SCc1coc(-c2ccccc2)n1 (centres unmarked),9.275,-
CCS(=O)(=O)N1CCC2(CCCN(Cc3cc(OC)ccc3F)C2)C1 (centres unmarked),-4.535 & -25.18,-
c1ccc(CN2CCC(NCCSc3cnn[nH]3)CC2)cc1,-,-9.922
O=C(NCC1CCOC1)c1csc(-c2cccc(Cl)c2)n1 (centres unmarked),12.86,-
COc1cc2cc(C)c(SCCN3CCCC3)nc2cc1OC.Cl,51.88,-
Cc1cn2c(n1)CCC(NC(=O)c1ccc(CS(C)(=O)=O)o1)C2 (centres unmarked),-,14.7
Cc1ccc(-c2nc(CCNCc3ccncc3)co2)cc1,-,20.03 & 32.69
CN(CCC1CCCCO1)c1nncc(-c2ccccc2)n1 (centres unmarked),55.57,-
CCOc1cccc2c1OCC(C(=O)NS(=O)(=O)c1c(C)noc1C)=C2,58.03,-
COC(=O)c1cc(NCC(=O)NC(N)=O)cc(C(F)(F)F)c1,-11.66,-9.729
Cc1noc(CCCC(=O)N2CCCCC2c2nccs2)n1 (centres unmarked),-,-35.45
CC(=O)c1c(F)cccc1N1CCC(C(N)=O)CC1,-5.258,-12.57 & -6.205
Cc1cccc(C2CCCN2S(=O)(=O)N(C)C)n1 (centres unmarked),37.8,-9.674
O=C(CCc1ccsc1)NC1CCN(c2cccc(F)c2)CC1,26.2,-
CCn1nc(C)c2nc(C(C)C)nc(NC)c21,-9.703,-
Cc1nc(CN(Cc2ccncc2)C2CCN(C)CC2)cs1,-7.284 & -49.67,-
CCc1nc(N)nc(NCCC(=O)N2CCCC2)c1C,-4.188 & -26.96,9.121
COc1cccnc1-c1ccc(F)c2c1OC(CN)C2 (centres unmarked),-,-2.068
Cc1cc(NC2CCC(=O)N(C)C2)n2nccc2n1 (centres unmarked),-,73.77
O=C(O)C(F)(F)F.O=C(O)C(F)(F)F.O=C(c1c[nH]cn1)N1CCC(F)(F)C2(CCN(c3ccccn3)C2)C1 (centres unmarked),-0.7081 & -2.358,-
CCN(Cc1ccccc1)C(=O)CCN1CC(O)C1,18.69 & 50.07,-
OC1(CN2CCC(Oc3cccc(C(F)(F)F)c3)CC2)CCNC1 (centres unmarked),74.22,-
[H][C@@]12C[C@@H](Oc3cccnc3)CN1CCN(C(=O)c1ccncc1)C2,-,2.04
CC(C)c1ccc(C(CN)N2CCc3sccc3C2)cc1 (centres unmarked),83.07,76.08
Cc1nnc(CN2CCC(Oc3ccc(F)cc3)CC2)o1,0.9496 & -1.673,-11.19
OCC1(CC2CCCCO2)CCN(c2cnc3ccccc3n2)CC1 (centres unmarked),64.81 & 60.08,66.38
CS(=O)(=O)c1ccc(-c2cnc(C3CCCN3)cn2)cc1.Cl (centres unmarked),-28.51,-9.002 & 10.32
OCC(CO)Nc1ccc2ccc(Cl)c(Cl)c2n1,-2.39,-
Cc1cccnc1CN(C)C(C(=O)O)c1ccc(C(C)(C)C#N)cc1 (centres unmarked),39.86,-
CNC(=O)NC(C)c1nc(-c2ccccc2)c[nH]1 (centres unmarked),-11.8,-
Cc1nsc(C(=O)NCCc2cccs2)n1,54.99,47.14
CSc1nccc(N2CCC3(CCCN(Cc4ccc(F)cc4)C3)C2)n1 (centres unmarked),91.36,62.9
COc1ccc(C2=NOC(CO)C2)cc1 (centres unmarked),26.46,-
CCCn1cnnc1-c1nc2c([nH]1)CC(c1ccc(Cl)cc1)CNC2=O (centres unmarked),-,61.66
COc1ccc(CNCC2CC2)cc1F,13.96,-
CCc1cc(=O)[nH]c(-n2nc(C3CC3)cc2NC(=O)C2CC2)n1,72.3,42.71
CC(C)CN1CC(C(=O)NCCc2c[nH]cn2)CC1=O (centres unmarked),-,14.01
Cc1nc2c(c(NCc3nc4ccccc4s3)n1)CCNCC2,69.41,-
COC(=O)CCCN(C)C(c1cccnc1)c1ccc(F)cc1F (centres unmarked),-,-12.23 & -2.692
Cc1ccc2[nH]c(CN(C)Cc3n[nH]c4c3CCC4)nc2c1,15,-
CC(C)N(Cc1ccccn1)C(=O)CCC(=O)c1ccccc1,4.518,-
Cc1cc(CNc2cc(Cl)ccc2OCCS(C)(=O)=O)no1,17.61,7.347
Cc1nc(CN2CCc3nc(NC(C)C)nc(C)c3C2)cs1,49.25 & 35.45,-
CN(C)c1ncnc2c1CCN(c1cccc(F)c1)CC2,-5.34 & 61.27,-
Cc1noc(C)c1CNC(=O)c1ccc(NC2CC2)nc1,11.87,-
CC(=O)Nc1ccc(Cl)c(C(=O)N(C)C(C)c2ccon2)c1 (centres unmarked),-13.05,-26.42